Anti-infective test results gathered from many reports (values: NIAID ChemDB through PubChem).

Shared fields: tests in culture; agent: Hepatitis C virus; cells: Huh7; measure: EC50

Rows are shuffled and stem from different studies. Blank or dashed fields: not listed here. ECn: concentration that inhibits the pathogen or its effect by n%. a–b is a range or a potency band.

smiles,strain,method,result
COc1cccc(CC(=O)N/N=C/c2ccccc2OS(=O)(=O)c2cc(OC)ccc2OC)c1,-,replicon,<5 µM
C=C[C@@H]1C[C@]1(NC(=O)[C@@H]1C[C@@H](Oc2cc(-c3ccccc3)nc3cc(OC)ccc23)CN1C(=O)[C@@H](NC(=O)N(CCC(F)(F)F)CC1CC1)C(C)(C)C)C(=O)NS(=O)(=O)C1CC1,1b,replicon,<0.5 µM
C=CC1CC1(NC(=O)[C@@H]1C[C@@H](OC(=O)Nc2ccccc2C(C)=O)CN1C(=O)[C@@H](NC(=O)OC(C)(C)C)C(C)(C)C)C(=O)NS(=O)(=O)C1CC1,1b,replicon,0.1–1 µM
C=C[C@@H]1C[C@]1(NC(=O)[C@@H]1C[C@@H](Oc2cc(-c3ccccc3)nc3cc(OC)ccc23)CN1C(=O)[C@@H](NC(=O)OC(C)(C)C)C(C)(C)C)C(=O)NS(=O)(=O)c1c(Cl)cccc1Cl,1b,replicon,<0.5 µM
COC(=O)c1ccc2c(C3CCCCC3)c3n(c2c1)C/C(=N/O)Cc1ccccc1-3,-,replicon,0.01–1 µM
C=CC1C[C@]1(NC(=O)[C@@H]1C[C@@H](Oc2cc(-c3ccccc3)nc3cc(OC)ccc23)CN1C(=O)[C@@H](NC(=O)NC(C)(C)C)C(C)(C)C)C(=O)O,1b,replicon,<0.5 µM
C=CC1CC1(NC(=O)[C@@H]1C[C@@H](OC(=O)NCCc2ccccc2)CN1C(=O)[C@@H](NC(=O)OC(C)(C)C)C(C)(C)C)C(=O)NS(=O)(=O)C1CC1,1b,replicon,1–10 µM
O=C(O)c1ccc2c(C3CCCCC3)c3n(c2c1)CCNc1ccccc1-3,-,replicon,1–10 µM
C=CC1CC1(NC(=O)[C@@H]1C[C@@H](OC(=O)Nc2ccccn2)CN1C(=O)[C@@H](NC(=O)OC(C)(C)C)C(C)(C)C)C(=O)NS(=O)(=O)C1CC1,1b,replicon,>10 µM
C=C[C@@H]1C[C@]1(NC(=O)[C@@H]1C[C@@H](Oc2cc(-c3ccccc3)nc3cc(OC)ccc23)CN1C(=O)[C@@H](NC(=O)OC(C)(C)C)C(C)(C)C)C(=O)NS(=O)(=O)c1ccccc1C,1b,replicon,<0.5 µM
O=C(Cc1ccc(F)cc1Cl)N/N=C/c1ccccc1OS(=O)(=O)c1ccc(C(F)(F)F)cc1,-,replicon,<5 µM
C=C[C@@H]1C[C@]1(NC(=O)[C@@H]1C[C@@H](Oc2cc(-c3ccccc3)nc3cc(OC)ccc23)CN1C(=O)[C@@H](NC(=O)OCCC(=O)O)C(C)(C)C)C(=O)NS(=O)(=O)C1CC1,1b,replicon,<0.5 µM
Nc1ncnc2c1c(Br)nn2[C@@H]1C=C(CO)[C@@H](O)[C@H]1O,-,luciferase,32.2 µM
C=CC1CC1(NC(=O)[C@@H]1C[C@@H](OC(=O)n2c3ccccc3c3ccccc32)CN1C(=O)[C@@H](NC(=O)OC(C)(C)C)C(C)(C)C)C(=O)NS(=O)(=O)C1CC1,1b,replicon,<0.1 µM
O=C(NC1(C(=O)Nc2ccc(-c3csc(C(=O)O)n3)cc2)CCCC1)c1ccc2c(C3CCCCC3)c3n(c2c1)CCCc1ccccc1-3,-,replicon,0.01–1 µM
O=C(Cc1cccc(Cl)c1)N/N=C/c1ccccc1OS(=O)(=O)c1ccc(C(F)(F)F)cc1,-,replicon,<5 µM
CN(C)S(=O)(=O)NC(=O)c1ccc2c(C3CCCCC3)c3n(c2c1)CC(O)Cc1ncccc1-3,-,replicon,0.01–1 µM
COc1ccc2c(O[C@@H]3C[C@@H](C(=O)NC4(C(=O)NS(=O)(=O)C5CC5)CCC45CC5)N(C(=O)[C@@H](NC(=O)OC(C)(C)C)C(C)(C)C)C3)cc(-c3ccccc3)nc2c1,1b,replicon,<5 µM
C=CC1CC1(NC(=O)[C@@H]1C[C@@H](OC(=O)Nc2ccccc2C(=O)OCC)CN1C(=O)[C@@H](NC(=O)OC)C(C)(C)C)C(=O)NS(=O)(=O)C1CC1,1b,replicon,0.1–1 µM
Nc1ncnc2c1cnn2[C@@H]1C=C(CO)[C@@H](O)[C@H]1O,-,luciferase,>100 µM
Cc1ccc(COc2ccccc2/C=N/NC(=O)Cc2ccccc2)cc1,-,replicon,>50 µM
O=C(O)c1ccc2c(C3CCCCC3)c3n(c2c1)CCCc1ncccc1-3,-,replicon,0.01–1 µM
C=CC1CC1(NC(=O)[C@@H]1C[C@@H](OC(=O)N2CCCCC2)CN1C(=O)[C@@H](NC(=O)OC(C)(C)C)C(C)(C)C)C(=O)NS(=O)(=O)C1CC1,1b,replicon,1–10 µM
O=C(NS(=O)(=O)Cc1ccccc1)c1ccc2c(C3CCCCC3)c3n(c2c1)CCCc1ncccc1-3,-,replicon,1–10 µM
C=CC1CC1(NC(=O)[C@@H]1C[C@@H](OC(=O)N[C@H]2C[C@@H]2c2ccccc2)CN1C(=O)[C@@H](NC(=O)OC(C)(C)C)C(C)(C)C)C(=O)NS(=O)(=O)C1CC1,1b,replicon,1–10 µM
O=C(O)c1ccc2c(C3CCCCC3)c3n(c2c1)CC(N1CCOCC1)Cc1cccnc1-3,-,replicon,0.01–1 µM
COc1cccc(CC(=O)N/N=C/c2ccccc2OS(=O)(=O)c2ccc(OCc3cnc(Cl)s3)cc2)c1,-,replicon,>50 µM
Nc1ccn([C@@H]2O[C@H](CO)[C@@H](O)[C@H]2F)c(=O)n1,-,replicon,0.74 µM